## Single amino acid changes in Zika NS2B-NS3 and viral growth

Data from the supplement of Ni et al. 2025, doi:10.1038/s41467-025-63602-z.

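Libraries of single mutants were passaged as virus pools on Huh-7.5 cells. Deep sequencing gave the change in frequency of each mutant relative to wild type, averaged over three replicate libraries (two for positions 207-308).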

The scanned region of Zika virus MR766 is shown below (positions 1-308): NS2B is 2-131, NS3 begins at position 132.
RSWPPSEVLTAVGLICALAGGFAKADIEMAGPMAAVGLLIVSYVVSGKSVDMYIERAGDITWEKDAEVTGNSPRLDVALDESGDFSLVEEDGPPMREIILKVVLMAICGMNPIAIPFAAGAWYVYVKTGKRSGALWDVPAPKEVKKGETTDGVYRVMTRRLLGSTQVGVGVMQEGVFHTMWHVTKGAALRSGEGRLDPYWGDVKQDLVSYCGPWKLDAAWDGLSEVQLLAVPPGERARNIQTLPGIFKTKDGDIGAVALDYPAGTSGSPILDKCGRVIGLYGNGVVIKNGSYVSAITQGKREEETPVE

Scale: log2 effect, wild type = 0; the lower, the more harmful to the virus.
A change reads original residue, position, new residue.
This list holds changes to alanine only.

For L104A the result was -4.00.
For M105A the result was -6.78.
For I107A the result was -1.53.
For C108A the result was -0.97.
For G109A the result was -6.58.
For M110A the result was -1.74.
For N111A the result was -2.17.
For P112A the result was -6.18.
For I113A the result was -2.19.
For I115A the result was -6.05.
For P116A the result was -5.99.
For F117A the result was -1.59.
For G120A the result was -1.14.
For W122A the result was -6.12.
For Y123A the result was -1.52.
For V124A the result was -0.63.
For Y125A the result was -3.49.
For V126A the result was -1.04.
For K127A the result was -4.81.
For T128A the result was -3.61.
For G129A the result was -6.93.
For K130A the result was -6.35.
For R131A the result was -6.44.
For S132A the result was -2.58.
For G133A the result was -6.60.
For L135A the result was -7.43.
For W136A the result was -7.09.
For D137A the result was -6.88.
For V138A the result was -4.92.
For P139A the result was -6.41.
For P141A the result was -6.04.
For K142A the result was -1.76.
For E143A the result was -1.18.
For V144A the result was -2.17.
For K145A the result was -1.50.
For K146A the result was -2.40.
For G147A the result was -0.85.
For E148A the result was -1.56.
For T149A the result was -3.06.
For T150A the result was -3.93.
For D151A the result was -2.11.
For G152A the result was -6.38.
For V153A the result was -5.12.
For Y154A the result was -5.83.

Extract of 4 entries:

change,log2 effect
V144A,-2.17
I113A,-2.19
P112A,-6.18
W122A,-6.12

Position 1 still belongs to NS2A. In the paper, -1 or higher counts as tolerated.
Positions 1-103, 104-206 and 207-308 were made and measured as separate libraries.
Six mutants with high scores were retested singly and none clearly outgrew wild type, so positive values are not proof of better growth.